A mixed list of measured activities; the numbers were collected in NIAID ChemDB.

All rows: cytotoxicity tests; cell line: E6SM; endpoint: CC50

Lines come from different laboratories, so protocols vary. a–b is a range or a potency band. CCn: concentration that lowers growth or viability of the cells by n%. Blank or dashed fields: not listed here.

SMILES,read by,result
O=c1[nH]c(=O)n([C@@H]2CO[C@H](CO)[C@@H](O)C2)cc1I,,>400 µg/mL
CCn1nc(Cc2n[nH]c(=S)o2)nc1C,,>400 µg/mL
NC1CSCCN2CCc3c([nH]c4ccccc34)[C@H]12,,100 µg/mL
OC[C@H]1O[C@@H](c2cc(C(F)(F)F)c(F)cc2F)C[C@@H]1O,,9 µg/mL
COC(=O)C(C)(C)NP(=O)(OC[C@H]1O[C@@H](n2cc(/C=C/Br)c(=O)[nH]c2=O)C[C@@H]1O)Oc1ccccc1,,>400 µM
O=c1[nH]c(=O)n([C@H]2C[C@H](O)[C@@H](CO)O2)cc1/C=C/Br,,≥400 µg/mL
OC[C@H]1O[C@@H](c2cc(I)c(F)cc2F)C[C@@H]1O,MTT,610 µg/mL
O=c1[nH]cnc2c1ncn2C1C[C@H](CO)[C@@H](CO)C1,,>200 µg/mL
CCC(Sc1ncnc2c1cnn2COCCO)C(N)=O,,>400 µg/mL
CC1(C)[C@@H](CO)CC[C@@]1(C)Cn1nnc2c(Cl)ncnc21,,>400 µg/mL
Nc1ccn(CC[C@H](O)CCO)c(=O)n1,,>400 µg/mL
CCSC1NN=C(Cc2nc(C)n(C)n2)N1c1ccccc1,,400 µg/mL
CCC(Sc1ncnc2c1cnn2COCC(O)CO)C(N)=O,,>400 µg/mL
CO[C@H](CO)[C@@H](O)CCn1cnc2c(N)ncnc21,,>400 µg/mL
Nc1nccc2c1ncn2[C@@H]1C[C@H](CO)[C@@H](O)[C@H]1O,,100 µg/mL
CC1(C)[C@@H](CO)CC[C@@]1(C)Cn1nnc2c(N)ncnc21,,>400 µg/mL
NNC(=O)Cc1nc2n(n1)CCCCC2,,>400 µg/mL
CC#Cc1cn([C@@H]2CO[C@H](CO)[C@@H](O)C2)c(=O)[nH]c1=O,,>400 µg/mL
CC(C)CS[C@@H]1C=C[C@H](n2cnc3c(N)ncnc32)C1,,16–80 µg/mL
CO[C@H](CO)[C@@H](O)CCn1cc(C)c(=O)[nH]c1=O,,>400 µg/mL
O=c1[nH]c(=O)n([C@H]2C[C@H](O)[C@@H](CO)O2)cc1/C=C/Br,,>400 µM
NC(=O)CSc1ncnc2c1cnn2COCC(O)CO,,>400 µg/mL
Nc1nc2c(ncn2[C@H]2C=C[C@@H](CO)[C@H](O)C2)c(=O)[nH]1,,>16 µg/mL
Nc1ncnc2c1ncn2C1C[C@H](CO)[C@@H](CO)C1,,>200 µg/mL
CC1(C)[C@@H](CO)CC[C@@]1(C)Cn1cnc2c(=O)[nH]cnc21,,>400 µg/mL
CCn1nc(CC(=O)N/N=C/c2ccco2)nc1C,,>400 µg/mL
Nc1nc2c(ncn2CC[C@H](O)CCO)c(=O)[nH]1,,>400 µg/mL
Nc1ncnc2c1ncn2[C@@H]1C=C(CO)[C@@H](O)[C@H]1O,,70 µg/mL
Cc1nc(CC(=O)NN)nn1C,,>400 µg/mL

For reference, 3 entries again:

SMILES	read by	result
CCn1nc(CC(=O)N/N=C/c2ccco2)nc1C		>400 µg/mL
Nc1nc2c(ncn2CC[C@H](O)CCO)c(=O)[nH]1		>400 µg/mL
CO[C@H](CO)[C@@H](O)CCn1cc(C)c(=O)[nH]c1=O		>400 µg/mL